Experiment: general procedure: Fmoc solid-phase peptide synthesis; Trt-TentaGel (C-terminal acids), Rink Amide (C-terminal amides), Fmoc-Tyr-hydrazide Trt resin (hydrazides); HATU, DiPEA (PEG spacer coupling)
Conditions: for isolated mass / isolated yield: whole synthesis; for isolated yield: scale of the general procedure 10 μmol (optimization tests 25 μmol)
[1] = on theoretical full scale of the synthesis

Substance | isolated mass | isolated yield | isolated yield [1] | step yield (coupling step, on MPA thioester used for NCL, over three steps)
HHHHHH-PEG6-YSP TSP S-YpSP TSPS -YSPTSPS-YSP TSP S-YSP TS PS-YSPTSPS -NH2 | 1.9 8 μmol | 40% |  | 
HHHHHH- PEG6--YSPTSPS-YSP TSPS -YSPTSPpS-YSP TSP S-YSP TSPS-YSP TSPS -NH2 | 4.2 6 μmol | 36% |  | 
CPTSP S-YSP TSPS -YpSPTSPS-YS PTSPS -YSPTSPS -YSP TSP S-NH2 | 4.44 µmol |  | 44% | 
H6-NH-(CH2)2-PEG6-CO-YSPTSPS-YpSPTSPS-(YSPTSPS)4-YAPTSPS-(YSPTSPS)3-YpSPTSPS-YSPTSPS |  |  |  | 22%
HHHHHH- PEG6-YSP TSP S-YSP TSPS-YSP TSPS -YSPTSPS -YSPTS P pS-YpSPTSPS-NH2 | 1.1 6 μmol | 23% |  | 
HHHHHH- PEG6-YSP TSP S-YSP TSPS-YSP TSPS-YSPTSPS -Y SPTS P S-YSPTSPS -NH2 | 2.1 7 μmol | 43% |  | 
HHHHHH- PEG6-YSP TSP S-YSP TSPS-YpSP TSPS -YSPTSPS-YSP TS PS-YSPTSPS -NH2 | 1.9 3 μmol | 39% |  | 
HHHHHH- PEG6-YSP TSP S-YpSP TSPS -YSPTSPS-YSP TSP S-YSP TS PS-YSPTSPS -Y-NHNH2 | 1.85 µmol |  | 19% | 
HHHHHH-PEG6-YSP TSP S-YSP TSPS-YSP TSPS -YSPTSPS -Y SPTS P S-YSPTSPS -Y-MPA | 1.76 µmol |  | 18% | 
HHHHHH- PEG6-YpSP TSPS -YSP TSPS -YSPTSPS-YSP TSP S-YSP TS PS-YSPTSPS -NH2 | 0.5 1 μmol | 10% |  | 
HHHHHH- PEG6-YSP TSP S-YSP TSPS-YSP TSPS -YSPTSPS -Y SPTS P pS-YpSPpTSPS -NH2 | 1.8 5 μmol | 37% |  | 
CPTSP S-YpSP TSPS -YSPTSPS-YS PTSPS -YSPTSPS -YSP TSP S-NH2 | 4.80 µmol |  | 48% | 
CPTSP S-YSP TSPS -YSP TSPS -YSP TSPS -YSPTSPS-YpSPTSPS-NH2 | 3.63 µmol |  | 36% | 
HHHHHH- PEG6-YSP TSP S-YpSP TSPS -YSPTSPS-YSP TSP S-YSP TS PS-YSPTSPS -Y-MPA | 1.22 µmol |  | 12% | 
CPTSP S-YSP TSPS -YSP TSPS -YpSPTSPS-YSPTSPS -YSP TSP S-NH2 | 3.68 µmol |  | 37% | 
CPTSP S-YSP TSPS -YSP TSPS -YSP TSPS -YpSPTSPS-YSP TSP S-NH2 | 4.44 µmol |  | 44% | 
HHHHHH- PEG6-YSP TSP S-YSP TSPS-YSP TSPS -YSPTSPS -Y SPTS P S-YSPTSPS -Y-NHNH2 | 2.52 µmol |  | 25% | 

From PMC11066871 (Journal of the American Chemical Society, 2024)
